Test results published in patent US20110087037A1, “SYNTHESIS OF RING B ABEO-STEROLS AS NOVEL INHIBITORS OF MYCOBACTERIUM TUBERCULOSIS” (priority 2007, published 2011).

test system: VERO cells (ATCC CCL-81); test: Cytotoxicity against VERO cells; assay type: cell-based; conditions: SI=IC50/MIC (VERO IC50 / Mtb MIC)

Going from `CCC(CCC(C)C1CCC2C3C(C=O)=C4CC(O)CCC4(C)C3CCC12C)C(C)C` (centres unmarked) [Compound 5] to `CC(C)[C@@H](C)CC[C@@H](C)[C@H]1CC[C@H]2[C@@H]3C(C=O)=C4C[C@@H](O)CC[C@]4(C)[C@H]3CC[C@]12C` [Compound 11], the “Selectivity index (SI)” value rises from 7 to 10.8.

Going from `CC(C)C(C)C1(C)CC1C(C)C1CCC2C3C(C=O)=C4CC(O)CCC4(C)C3CCC12C` (centres unmarked) [Compound 9] to `C=C(CC[C@@H](C)[C@H]1CC[C@H]2[C@@H]3C(C=O)=C4C[C@@H](O)CC[C@]4(C)[C@H]3CC[C@]12C)C(C)C` [Compound 2], the “Selectivity index (SI)” value rises from 4.3 to 6.5.

`CC(C)CCC[C@@H](C)[C@H]1CC[C@H]2[C@@H]3C(C=O)=C4C[C@@H](O)CC[C@]4(C)[C@H]3CC[C@]12C` [Compound 7] was tested, and the “Selectivity index (SI)” value was greater than 9.
